The experiment concerns M. tuberculosis H37Rv growth inhibition, 7H9 media. The experiment in a line: M. tuberculosis growth inhibition, HTS (AID 449762).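 Further: bacterial growth assessed after seven days of incubation.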 Particulars: measured here: IC90 growth inhibition.

Structures are written as SMILES. Inconclusive results are not listed.

One may read the IC90 as the concentration at which the effect reaches the 90% level. Low readings indicate an effect from little substance, high ones a need for much substance. `O=[N+]([O-])c1cc([N+](=O)[O-])c(-c2cnn(-c3ccccc3)c2)c([N+](=O)[O-])c1` registered an IC90 of 12.8 µM.

The values above are taken from PubChem BioAssay AID449762 (Southern Research Specialized Biocontainment Screening …, 2010).
